In paper PMC11320570 (ACS Infectious Diseases, 2024):

Experiments:
[1] = biological target: soluble E80 protein of DENV-3 (Dengue virus type 3; strain of E80 not …, UniProt P27915)
[2] = biological target: soluble E80 protein of DENV-1 (Dengue virus type 1 (strain Nauru/West …, UniProt P17763)); test: ELISA

B1: 513 engineered and humanized antibody (antibody, V domains shown)
VH: QVQLVQSGAEVKKPGASVKVSCKAGFNIKDVYMSWVRQAPEQGLEWMGRIDPENGDTKYDPKLQGRVTMTADTSTNTAYMELRSLRSDDTAVYYCARGWEGFAYWGQGTLVTVSS
VL: DIVMTQSPASLAVSLGQRATISCRASENVDKYGNSFMHWYQQKPGQPPKLLIYRASELQWGVPDRFSGSGSGTDFTLTISSLQAEDVAVYYCQRSNEVPWTFGQGTKLEIK
B1: binds [1]; binds [2].
